Assay results reported in US20060024794.

Target: GFP-SNAP25 (134-206) fusion protein substrate (UniProt P60880)

## recombinant BoNT/A-LC, wild type, baculovirally expressed, C-terminal His tag
  endopeptidase enzymatic activity (GFP-SNAP cleavage assay): showed significant high activity
